Measured values from several laboratories, pooled; numbers as filed in NIAID ChemDB.

Shared fields: tests in culture; organism: Mycobacterium avium complex; read-out: MIC

Neighbouring rows are from separate reports.

structure,strain,method,value
O=C(O)c1cn(C2CC2)c2c(F)c(N3CCN4CCC3C4)c(F)cc2c1=O,1760694,,2 µg/mL
NC[C@H]1O[C@H](O[C@H]2[C@H](O)[C@@H](O[C@H]3O[C@H](CO)[C@@H](O)[C@H](N)[C@H]3O)[C@H](N)C[C@@H]2N)[C@H](O)[C@@H](O)[C@@H]1O,Isolate 49,,6.25 µg/mL
CO[C@H]1/C=C/O[C@@]2(C)Oc3c(C)c(O)c4c(O)c(c(/C=N/N5CCN(C)CC5)c(O)c4c3C2=O)NC(=O)/C(C)=C\C=C\[C@H](C)[C@H](O)[C@@H](C)[C@@H](O)[C@@H](C)[C@H](OC(C)=O)[C@@H]1C,969/HIV-,,8 µg/mL
NC[C@H]1O[C@H](O[C@H]2[C@H](O)[C@@H](O[C@H]3O[C@H](CO)[C@@H](O)[C@H](N)[C@H]3O)[C@H](N)C[C@@H]2N)[C@H](O)[C@@H](O)[C@@H]1O,Isolate C-43,,50 µg/mL
NCC[C@H](O)C(=O)N[C@@H]1C[C@H](N)[C@@H](O[C@H]2O[C@H](CN)[C@@H](O)[C@H](O)[C@H]2O)[C@H](O)[C@H]1O[C@H]1O[C@H](CO)[C@@H](O)[C@H](N)[C@H]1O,5718,,8 µg/mL
CC1COc2c(N3CCN(C)CC3)c(F)cc3c(=O)c(C(=O)O)cn1c23,CIPT 14031003,,10 µg/mL
CC1COc2c(N3CCN(C)CC3)c(F)cc3c(=O)c(C(=O)O)cn1c23,804/HIV+,,16 µg/mL
NCC1CCN(c2c(F)cc3c(=O)c(C(=O)O)cn(C4CC4)c3c2F)C1,1915112,,16 µg/mL
CN1CCN(c2cc3c(cc2F)c(=O)c(C(=O)O)cn3-c2ccc(F)cc2)CC1,3212,,16 µg/mL
NCC[C@H](O)C(=O)N[C@@H]1C[C@H](N)[C@@H](O[C@H]2O[C@H](CN)[C@@H](O)[C@H](O)[C@H]2O)[C@H](O)[C@H]1O[C@H]1O[C@H](CO)[C@@H](O)[C@H](N)[C@H]1O,1056,,10 µg/mL
CN[C@@H]1[C@@H](O)[C@@H](O[C@@H]2[C@@H](O)[C@H](O[C@H]3O[C@H](CN)CC[C@H]3N)[C@@H](N)C[C@H]2N)OC[C@]1(C)O,TMC 1406,,<0.01 µg/mL
CC(C)(N)C1CCN(c2c(F)cc3c(=O)c(C(=O)O)cn(C4CC4)c3c2F)C1,1988557,,4 µg/mL
CCn1cc(C(=O)O)c(=O)c2cc(F)c(N3CCNCC3)cc21,Isolate 861589,,>30 µg/mL
NC[C@H]1O[C@H](O[C@H]2[C@H](O)[C@@H](O[C@H]3O[C@H](CO)[C@@H](O)[C@H](N)[C@H]3O)[C@H](N)C[C@@H]2N)[C@H](O)[C@@H](O)[C@@H]1O,N-961 (HIV+),,8 µg/mL
CC1CN(c2cc3c(cc2F)c(=O)c(C(=O)O)cn3-c2ccc(F)cc2F)CCN1,3212,,8 µg/mL
CO[C@H]1/C=C/O[C@@]2(C)Oc3c(C)c(O)c4c(O)c(c5c(c4c3C2=O)NC2(CCN(CC(C)C)CC2)N=5)=NC(=O)/C(C)=C\C=C\[C@H](C)[C@H](O)[C@@H](C)[C@@H](O)[C@@H](C)[C@H](OC(C)=O)[C@@H]1C,9838,,1 µg/mL
NC[C@@H]1O[C@H](O[C@H]2[C@@H](O)[C@H](O[C@@H]3[C@@H](O)[C@H](N)C[C@H](N)[C@H]3O[C@H]3O[C@H](CO)[C@@H](O)[C@H](O)[C@H]3N)O[C@@H]2CO)[C@H](N)[C@@H](O)[C@@H]1O,Isolate 93,,1.56 µg/mL
NNC(=O)c1ccncc1,1168,,8 µg/mL
CN[C@@H]1[C@H](O[C@H]2[C@H](O[C@H]3[C@H](O)[C@@H](O)[C@H](N=C(N)N)[C@@H](O)[C@@H]3N=C(N)N)O[C@@H](C)[C@]2(O)C=O)O[C@@H](CO)[C@H](O)[C@H]1O,13887 (serotype 14),,0.4 µg/mL
CCNCC1CN(c2c(F)cc3c(=O)c(C(=O)O)cn(C4CC4)c3c2F)CC1CNCC,1915112,,32 µg/mL
CO[C@H]1/C=C/O[C@@]2(C)Oc3c(C)c(O)c4c(O)c(c(/C=N/N5CCN(C/C=C/c6ccccc6)CC5)c(O)c4c3C2=O)NC(=O)/C(C)=C\C=C\[C@H](C)[C@H](O)[C@@H](C)[C@@H](O)[C@@H](C)[C@H](OC(C)=O)[C@@H]1C,101,,0.06 µg/mL
C[C@@H]1CN(c2c(F)c(N)c3c(=O)c(C(=O)O)cn(C4CC4)c3c2F)C[C@H](C)N1,10,broth dilution,0.12 µg/mL
CC[C@@H](CO)NCCN[C@@H](CC)CO,N-251 (HIV-),,16 µg/mL
NC[C@H]1O[C@H](O[C@H]2[C@H](O)[C@@H](O[C@H]3O[C@H](CO)[C@@H](O)[C@H](N)[C@H]3O)[C@H](N)C[C@@H]2N)[C@H](N)[C@@H](O)[C@@H]1O,Isolate 135,,12.5 µg/mL
O=C(O)c1cn(C2CC2)c2c(F)c(N3CC4C(CO)C4C3)c(F)cc2c1=O,1760694,,32 µg/mL
NCCC(O)C(N)CC(=O)NC1CNC(=O)C(C2CCN=C(N)N2)NC(=O)/C(=C/NC(N)=O)NC(=O)C(CO)NC(=O)C(CO)NC1=O,13011 (serotype 16),,25 µg/mL
CC[C@@H](CO)NCCN[C@@H](CC)CO,3220,,32 µg/mL
CCC1CCN(c2c(F)cc3c(=O)c(C(=O)O)cn(C4CC4)c3c2F)C1,1988557,,2 µg/mL
CC(C)N=c1cc2n(-c3ccc(Cl)cc3)c3ccccc3nc-2cc1Nc1ccc(Cl)cc1,LR25/HIV+,,<0.12 µg/mL

Repeating the final 2 entries:

{"structure": "CCC1CCN(c2c(F)cc3c(=O)c(C(=O)O)cn(C4CC4)c3c2F)C1", "strain": "1988557", "value": "2 µg/mL"}
{"structure": "CC(C)N=c1cc2n(-c3ccc(Cl)cc3)c3ccccc3nc-2cc1Nc1ccc(Cl)cc1", "strain": "LR25/HIV+", "value": "<0.12 µg/mL"}

An empty or dashed field is not shown.